Test results reported in US20240327334A1, “Covalent Inhibitors As Antiviral Agents” (Enanta Pharmaceuticals, Inc., priority 2022, published 2024).

Legend:
[1] = biological target: SARS-CoV-2 Papain-like (PLpro) protease (Severe acute respiratory syndrome coronavirus 2, UniProt P0DTD1); assay: SARS-CoV-2 Papain-like (PLpro) protease biochemical enzyme inhibition assay (ubiquitin-fluorophore substrate, Ub-R110); conditions: read-out: PLpro IC50, run in duplicate
Description: SARS-CoV-2 Papain-like (PLpro) protease biochemical enzyme inhibition assay: Ubiquitin-modified at the C-terminal with a masked fluorophore is used as a substrate for PLpro which cleaves the fluorophore and the unmasked free fluorophore generates a fluorescent signal. The fluorophore is either Rhodamine or AMC. A similar assay is also explored using ISG15-AMC. Procedure: 1) Transfer compounds to 384w assay plates using Echo according to the general platemaps. 2) Add 10 μL of 1× Assay Buffer to LOW control wells and 10 μL of 2× PLpro solution to other wells in the assay plate according to the platemap, spin at 800 rpm for 1 min and incubate at RT for 30 mins. 3) Add 10 μL of 2× substrate solution to each well of enzyme solution according to platemap. Spin at 800 rpm for 1 min and incubate assay at RT in the dark for 30 mins. 4) Spin at 800 rpm and read plates on Virology Envision for Ub-R110 the Ex/Em was 485/535 nm. 5) Normalize data to high and low controls and determine IC50 by fitting data to normalized response versus inhibitor (variable slope) using GraphPad Prism 7. All experiments were run in duplicate, and IC50 ranges are reported as follows: A<0.1 μM; B 0.1-1 μM; C 1-10 μM; D>10 μM.

[2] = tested on: SARS-CoV-2 replicon; assay: SARS-CoV-2 Replicon Assay (Huh-7), Renilla luciferase reporter; conditions: read-out: SARS-CoV-2 replicon EC50, Huh-7 cells
Description: White 384-well tissue-culture-treated clear-bottom plates are used in this assay. Using a Labcyte ECHO liquid dispenser, 3-fold serial dilutions of compounds suspended in DMSO are added to the inner 308 wells in duplicate in a total volume of 125 nL per well. Two columns are treated only with 125 nL DMSO, to be used as controls. […] HuH-7 cells at 1E7 cells/mL without RNA are electroporated as a low control. For each 100 μL electroporated cell suspension, 1150 μL pre-warmed (37° C.) media (DMEM, 1× GlutaMAX, 10% FBS) is added to the cells for a final concentration of 800 cells/μL. The electroporated cells are seeded into the 308 inner compound and control wells of the 384-well plate at 20,000 cells per well in a total volume of 25 μL. […] 25 μL of room temperature 1× Renilla-Glo Luciferase Assay Reagent (Promega) are added to each well and incubated at room temperature for 10 minutes and luminescence was measured on a Perkin Elmer EnVision. The Renilla-Glo reagent quantifies the amount of luciferase activity, which gives a measure of replicon activity present. The half-maximal effective concentration (EC50) was determined using GraphPad Prism. Percent residual activity of the replicon is determined after normalizing the curve to the mean RLU high control at 100% and the mean RLU low control at 0%. […]

Compound `COC(=O)/C=C/CNC(=O)C(=O)NCCc1ccccc1C(=O)N[C@H](C)c1cccc2ccccc12` [Example 37] has an IC50 [1] of 100 to 1000 nM and an EC50 [2] of under 1000 nM.
